PubChem BioAssay AID1224833 | University of Georgia, 2016
This is one part, drawn at random, of about 12,000 deposited reagents. Over the whole deposit, about 5,600 (46%) were called active. 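Active calls cover z-scores past 1 in both directions, so they include lowered as well as raised rotavirus replication.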 Entries without a mark were called inactive. Reagent sequences are not shown.

- Test: 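Host factors restraining rotavirus as candidate antiviral genes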 (primary screen)
- Cell system: monkey MA104 kidney cells
- Reagents: siRNA pool against human genes, 50 nM
- Time to read-out: 48 h knock-down before infection; read 24 h after infection
- Conditions: infection with rotavirus strain RV3 two days after transfection; infectious dose for this stage not given
- Detection: 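z-score of rotavirus antigen signal per well, from a fluorescent immunoassay, relative to non-targeting control wells on the same plate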
- Scale: z-score vs non-targeting control: higher = more rotavirus replication than with non-targeting control
- Rule for the call: In these data the active calls have z-score vs non-targeting control at about -1 or lower, or at about 1 or higher
- Meaning of the calls: active = z-score beyond 1 either way; inactive = z-score within 1 of zero

no.	gene symbol	z-score vs non-targeting control
1	KLK11 (kallikrein related peptidase 11)	1.13 (active)
2	MAN1A2 (mannosidase alpha class 1A member 2)	-1.4 (active)
3	ARSK (arylsulfatase family member K)	1.21 (active)
4	LDB2 (LIM domain binding 2)	-2.19 (active)
5	CYLC2 (cylicin 2)	0.521
6	CDH5 (cadherin 5)	0.118
7	ATG4D (autophagy related 4D cysteine peptidase)	1.45 (active)
8	CYP27B1 (cytochrome P450 family 27 subfamily B member 1)	-1.29 (active)
9	EXOC3L2 (exocyst complex component 3 like 2)	-1.64 (active)
10	ZNF699 (zinc finger protein 699)	-0.623
11	VCY1B (variable charge Y-linked 1B)	0.362
12	COA7 (cytochrome c oxidase assembly factor 7)	-0.702
13	NSMCE1 (NSE1 component of SMC5/6 complex)	-1.24 (active)
14	OSBP2 (oxysterol binding protein 2)	-0.834
15	OR4K13 (olfactory receptor family 4 subfamily K member 13)	-1.13 (active)
16	LYPD5 (LY6/PLAUR domain containing 5)	-1.37 (active)
17	ILDR1 (immunoglobulin like domain containing receptor 1)	0.294
18	ACBD7 (acyl-CoA binding domain containing 7)	-0.612
19	NAIF1 (nuclear apoptosis inducing factor 1)	-0.652
20	SUGT1 (SGT1 assembly cochaperone of MIS12 kinetochore complex)	-1.08 (active)
21	FOXD4 (forkhead box D4)	1.2 (active)
22	VCX3B (variable charge X-linked 3B)	-1.78 (active)
23	TAF10 (TATA-box binding protein associated factor 10)	0.991
24	PIWIL1 (piwi like RNA-mediated gene silencing 1)	2.03 (active)
25	SRRT (serrate, RNA effector molecule)	-0.233
26	SCHIP1 (schwannomin interacting protein 1)	-0.874
27	STXBP4 (syntaxin binding protein 4)	-1.32 (active)
28	GPR32 (G protein-coupled receptor 32)	-0.503
29	GMFB (glia maturation factor beta)	-0.589
30	WAC (WW domain containing adaptor with coiled-coil)	-1.53 (active)
31	MAD2L1 (mitotic arrest deficient 2 like 1)	1.23 (active)
32	AP3B1 (adaptor related protein complex 3 subunit beta 1)	1.06 (active)
33	RAB27B (RAB27B, member RAS oncogene family)	1.69 (active)
34	CD2 (CD2 molecule)	-1.65 (active)
35	CCNL2 (cyclin L2)	-0.0503
36	SFTPD (surfactant protein D)	-0.908
37	CALCR (calcitonin receptor)	-0.642
38	PGBD5 (piggyBac transposable element derived 5)	-0.225
39	ZNF335 (zinc finger protein 335)	-1.06 (active)
40	AZU1 (azurocidin 1)	2.04 (active)
41	LSM1 (LSM1 homolog, mRNA degradation associated)	-0.665
42	CRYGB (crystallin gamma B)	-1.07 (active)
43	TMPRSS6 (transmembrane serine protease 6)	-4.32 (active)
44	DHODH (dihydroorotate dehydrogenase (quinone))	-0.62
45	RPS17P12 (ribosomal protein S17 pseudogene 12)	-1.23 (active)
46	COX5A (cytochrome c oxidase subunit 5A)	-0.941
47	BFSP1 (beaded filament structural protein 1)	0.68
48	DRD5 (dopamine receptor D5)	-0.678
49	SRSF8 (serine and arginine rich splicing factor 8)	-2.12 (active)
50	ZFYVE19 (zinc finger FYVE-type containing 19)	-0.984
51	RD3 (RD3 regulator of GUCY2D)	-0.471
52	COPA (coat protein complex I subunit alpha)	-1.66 (active)
53	UACA	0.773
54	CHN2 (chimerin 2)	0.811
55	LYPD6B (LY6/PLAUR domain containing 6B)	-1.73 (active)
56	WRAP53 (WD repeat containing antisense to TP53)	1.86 (active)
57	SLC39A14	-0.277
58	OR2A5 (olfactory receptor family 2 subfamily A member 5)	-1.7 (active)
59	MT1F (metallothionein 1F)	1.23 (active)
60	RIGI (RNA sensor RIG-I)	-1.06 (active)
61	ZNF462 (zinc finger protein 462)	2.08 (active)
62	ANO5 (anoctamin 5)	0.0457
63	SOHLH1	0.277
64	TMC1 (transmembrane channel like 1)	-0.167
65	IRS1 (insulin receptor substrate 1)	1.39 (active)
66	EVI2B (ecotropic viral integration site 2B)	0.118
67	KRTAP4-11 (keratin associated protein 4-11)	-0.0877
68	CAAP1 (caspase activity and apoptosis inhibitor 1)	0.511
69	PTCD2 (pentatricopeptide repeat domain 2)	-2.38 (active)
70	KICS2 (KICSTOR subunit 2)	-1.77 (active)
71	CTTNBP2 (cortactin binding protein 2)	0.334
72	TBC1D13 (TBC1 domain family member 13)	-0.217
73	ARID1B (AT-rich interaction domain 1B)	0.67
74	IGF2 (insulin like growth factor 2)	-2.24 (active)
75	P3H2 (prolyl 3-hydroxylase 2)	0.701

Copied from the list.
COX5A (cytochrome c oxidase subunit 5A), z-score vs non-targeting control = -0.941
Under “z-score vs non-targeting control”, DHODH (dihydroorotate dehydrogenase (quinone)) has -0.62
Value of ZFYVE19 (zinc finger FYVE-type containing 19) under “z-score vs non-targeting control”: -0.984
Result of OR4K13 (olfactory receptor family 4 subfamily K member 13) in “z-score vs non-targeting control”: -1.13 (active)
AZU1 (azurocidin 1), z-score vs non-targeting control: 2.04 (active)
For “z-score vs non-targeting control”, ARSK (arylsulfatase family member K) is entered as 1.21 (active)
